{"source": "PubChem BioAssay AID1224833 | University of Georgia, 2016", "assay": "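Human genes whose knock-down alters rotavirus replication in monkey cells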 (primary screen)", "system": "monkey MA104 kidney cells", "reagent": "siRNA pool against human genes, 50 nM", "timing": "48 h knock-down before infection; read 24 h after infection", "treatment": "infection with rotavirus strain RV3 two days after transfection; infectious dose for this stage not given", "read-out": "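Rotavirus antigen per well by fluorescent immunoassay, normalised to non-targeting control wells on each plate and given as a standard z-score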", "direction": "z-score vs non-targeting control: higher = more rotavirus replication than with non-targeting control", "call rule": "In these data the active calls have z-score vs non-targeting control at about -1 or lower, or at about 1 or higher", "meaning of the calls": "active = z-score beyond 1 either way; inactive = z-score within 1 of zero", "note": "In all, the deposit lists about 12,000 reagents; below is a part drawn at random. Over the whole deposit, about 5,600 (46%) were called active. 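Active calls cover z-scores past 1 in both directions, so they include lowered as well as raised rotavirus replication.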 A number with no mark means an inactive call."}
{"Gene": "WDR6", "z-score vs non-targeting control": "-1.13 (active)"}
{"Gene": "OR4D2", "z-score vs non-targeting control": -0.367}
{"Gene": "ZNF229", "z-score vs non-targeting control": "-1.53 (active)"}
{"Gene": "TLX1", "z-score vs non-targeting control": -0.914}
{"Gene": "ZNF3", "z-score vs non-targeting control": "-2.29 (active)"}
{"Gene": "ATL1", "z-score vs non-targeting control": "-1.78 (active)"}
{"Gene": "FAIM", "z-score vs non-targeting control": -0.991}
{"Gene": "SPMIP3", "z-score vs non-targeting control": "1.18 (active)"}
{"Gene": "EMILIN2", "z-score vs non-targeting control": "-1.62 (active)"}
{"Gene": "INSIG1", "z-score vs non-targeting control": -0.86}
{"Gene": "ANXA13", "z-score vs non-targeting control": 0.0086}
{"Gene": "GALT", "z-score vs non-targeting control": "-1.03 (active)"}
{"Gene": "MTO1", "z-score vs non-targeting control": -0.991}
{"Gene": "ENAH", "z-score vs non-targeting control": -0.444}
{"Gene": "BCL11A", "z-score vs non-targeting control": 0.682}
{"Gene": "MACF1", "z-score vs non-targeting control": "-2.07 (active)"}
{"Gene": "YPEL1", "z-score vs non-targeting control": -0.721}
{"Gene": "TCEAL9", "z-score vs non-targeting control": "2.04 (active)"}
{"Gene": "PVR", "z-score vs non-targeting control": "-1.82 (active)"}
{"Gene": "XAB2", "z-score vs non-targeting control": 0.663}
{"Gene": "CD70", "z-score vs non-targeting control": "1.36 (active)"}
{"Gene": "COQ9", "z-score vs non-targeting control": "3.08 (active)"}
{"Gene": "OR1L6", "z-score vs non-targeting control": -0.371}
{"Gene": "CCDC43", "z-score vs non-targeting control": "1.09 (active)"}
{"Gene": "CLEC2D", "z-score vs non-targeting control": "-1.54 (active)"}
{"Gene": "SLC61A1", "z-score vs non-targeting control": "1.61 (active)"}
{"Gene": "FRMD7", "z-score vs non-targeting control": "-2.04 (active)"}
{"Gene": "HDAC2", "z-score vs non-targeting control": "-1.03 (active)"}
{"Gene": "CYB561D2", "z-score vs non-targeting control": "1.37 (active)"}
{"Gene": "ANP32A", "z-score vs non-targeting control": -0.883}
{"Gene": "DIAPH2", "z-score vs non-targeting control": "-1.27 (active)"}
{"Gene": "OTX1", "z-score vs non-targeting control": "1.38 (active)"}
{"Gene": "RSPH1", "z-score vs non-targeting control": "1.38 (active)"}
{"Gene": "TTC21A", "z-score vs non-targeting control": "-1.59 (active)"}
{"Gene": "FCN1", "z-score vs non-targeting control": -0.748}
{"Gene": "SRARP", "z-score vs non-targeting control": 0.63}
{"Gene": "FAABTP", "z-score vs non-targeting control": 0.145}
{"Gene": "ORMDL2", "z-score vs non-targeting control": "-1.8 (active)"}
{"Gene": "KRTAP4-1", "z-score vs non-targeting control": "-1.26 (active)"}
{"Gene": "CD163L1", "z-score vs non-targeting control": "-1.46 (active)"}
{"Gene": "TRADD", "z-score vs non-targeting control": -0.606}
{"Gene": "PSMB1", "z-score vs non-targeting control": "-2.04 (active)"}
{"Gene": "GGT5", "z-score vs non-targeting control": "2.24 (active)"}
{"Gene": "IPO13", "z-score vs non-targeting control": -0.199}
{"Gene": "STAR", "z-score vs non-targeting control": "1.14 (active)"}
{"Gene": "AMACR", "z-score vs non-targeting control": -0.701}
{"Gene": "ENY2", "z-score vs non-targeting control": "-1.83 (active)"}
